For this data set, the system named is HTLV-IIIB. The experiment in a line: Anti-HIV activity by MTT (tetrazolium) method in MT-4 cells. The format is cell-based. The following applies: selectivity index CC₅₀/EC₅₀. Here is the method:
Test Method: MMT (the tetrazolium assay) method Cell: MT-4 Cell Virus: HTLV-IIIB (Infection : 3 x 10⁵ plaque forming units (PFU)/ml) MT-4 cells were suspended in a culture medium at 2 x 10⁵ cells/ml and infected with HIV-IIIB at a multiplicity of infection of 0.01. Immediately after infection, 100µl of cell suspension was placed into microtiter tray wells containing various concentrations of the test samples. At the same time, the mock-infected cells were also cultured together with the samples in order to assess the cell toxicity of the test samples to the MT-4 cell. They were cultured in a CO₂-gas incubator at 37°C for 5 days, and the number of viable cells were determined by the MTT method. Antiviral activity is expressed by EC₅₀ (50% effective concentration), the concentration at which the agent protects 50% of the cells from injury by HIV infection, and cell toxicity by CC₅₀ (50% cell toxicity concentration), the concentration at which 50% of the cells are injured by the agent. Selectivity is measured by a selectivity index (S.I), which is expressed by CC₅₀/EC₅₀ (R. Pauwels, et al., J. of […], vol. 20, 1988, pp. 309-321).
“sodium salt of octadecyl maltohexaoside sulfate [MHS-3]” displayed an SI of 56. Consider “sodium salt of n-decyl β-laminaripentaoside sulfate [LPS-3]”, for which the SI was > 15. With “sodium salt of n-hexadecyl β-laminaripentaoside sulfate [LPS-2]”, the SI entry is “= 27”. Next, “sodium salt of octadecyl maltotrioside sulfate [MTS-1]”: > 1; “sodium salt of octadecyl maltoheptaoside sulfate [MHS-1]”: > 1.

The values above are taken from patent EP0497988A1, “ANTIVIRAL AGENT” (DAINIPPON INK AND CHEMICALS, INC., priority 1990, dated 1992).
